In patent US20230357364A1:

Target: SARS-CoV-2 RBD (RBD-2) (SARS-CoV-2)

Q: With “ACE2 (soluble, SPR competition) (from UniProt Q9BYF1 18-740) (receptor)” as the substance, how does the IC50 read?
A: The IC50 was 0.12 µM.
